From paper PMC8692984 (Frontiers in Pharmacology, 2021)

Sequences of proteins named here, by UniProt entry; tags and fusion partners are left off. Residues count along the entry.
UniProt P58154, 20-229 limits assumed: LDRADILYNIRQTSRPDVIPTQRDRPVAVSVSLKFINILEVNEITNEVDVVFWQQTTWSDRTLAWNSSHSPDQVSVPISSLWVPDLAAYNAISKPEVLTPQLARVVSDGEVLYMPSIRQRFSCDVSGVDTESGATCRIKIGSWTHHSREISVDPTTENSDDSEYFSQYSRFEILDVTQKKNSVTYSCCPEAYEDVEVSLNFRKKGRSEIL

Target: Ls-AChBP (Lymnaea stagnalis, UniProt P58154)
Experiment: displacement of [3H]-epibatidine binding on Ls-AChBP

CC[C@H](C)[C@@H]1NC(=O)[C@H](Cc2c[nH]cn2)NC(=O)[C@@H]2CCCN2C(=O)[C@H](CC(N)=O)NC(=O)[C@H](CC(N)=O)NC(=O)[C@H](C(C)C)NC(=O)[C@H](CC(N)=O)NC(=O)[C@@H]2CSSC[C@H](NC(=O)CN)C(=O)N[C@@H](CSSC[C@@H](C(=O)NCC(N)=O)NC1=O)C(=O)N[C@@H](CO)C(=O)N[C@@H](CCCNC(=N)N)C(=O)N1CCC[C@H]1C(=O)N[C@@H](C)C(=O)N2 [[H5R]OmIA]
reduced affinity for Ls-AChBP compared to OmIA: 3.6 fold

CC[C@H](C)[C@@H]1NC(=O)[C@H](Cc2c[nH]cn2)NC(=O)[C@@H]2CCCN2C(=O)[C@H](CC(N)=O)NC(=O)[C@H](CC(=O)O)NC(=O)[C@H](C(C)C)NC(=O)[C@H](CC(N)=O)NC(=O)[C@@H]2CSSC[C@H](NC(=O)CN)C(=O)N[C@@H](CSSC[C@@H](C(=O)NCC(N)=O)NC1=O)C(=O)N[C@@H](CO)C(=O)N[C@@H](Cc1c[nH]cn1)C(=O)N1CCC[C@H]1C(=O)N[C@@H](C)C(=O)N2 [[N11D]OmIA]
reduced affinity for Ls-AChBP compared to OmIA: 10 fold
